PubChem BioAssay AID624099 – ICCB-Longwood | 2012

- Purpose: 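Knock-downs relieving repression by E2 of an HPV18 LCR luciferase reporter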 (primary screen)
- Cells: human C33A cervical carcinoma cells (HPV-negative) stably expressing BPV1 E2 and an HPV18 LCR luciferase reporter
- Reagents: siRNA pool against human genes, 40 nM
- Duration: 72 h
- Measurement: 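Per-well luciferase luminescence, z-scored on each plate against the plate mean and SD with control wells left out, then averaged across three replicate plates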
- Reading the numbers: mean z-score and z-score: higher = stronger reporter signal, weaker E2 silencing
- Hit rule: 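Mean z ≥ 2 together with z ≥ 2 in two or more of the three replicates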
Here is an unselected part of about 21,000 reagents tested. In the full data, 497 (2.4%) got an active call. 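Higher z means weaker E2 silencing; only reporter increases were scored, and knock-downs that hurt cell survival may mask genuine repressor factors.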 A number with no mark means an inactive call. No sequences are given here.

| target gene | mean z-score | z-score, replicate A | z-score, replicate B | z-score, replicate C |
| --- | --- | --- | --- | --- |
| H3Y2 (H3.Y histone 2) | -1.18 | -1.38 | -1.15 | -1.01 |
| ITIH6 (inter-alpha-trypsin inhibitor heavy chain family member 6) | 0.48 | 0.43 | 0.63 | 0.39 |
| DEFB106A (defensin beta 106A) | -1.12 | -1.08 | -1.14 | -1.14 |
| GFOD3P | -1.08 | -1.18 | -1.1 | -0.97 |
| LOC388727 (retired record) | 0.8 | 0.56 | 1.24 | 0.59 |
| TUBB4A (tubulin beta 4A class IVa) | 0.73 | 0.43 | 0.57 | 1.18 |
| COPS9 (COP9 signalosome subunit 9) | 0.29 | -0.04 | 0.71 | 0.21 |
| KLHL27 (kelch like family member 27) | -1.2 | -1.18 | -1.2 | -1.23 |

Laid out differently: 2 of the entries above
target gene	mean z-score	z-score, replicate A	z-score, replicate B	z-score, replicate C
DEFB106A (defensin beta 106A)	-1.12	-1.08	-1.14	-1.14
GFOD3P	-1.08	-1.18	-1.1	-0.97

The results go on:
| target gene | mean z-score | z-score, replicate A | z-score, replicate B | z-score, replicate C |
| --- | --- | --- | --- | --- |
| XRN1 (5'-3' exoribonuclease 1) | 1.09 | 0.81 | 1.02 | 1.42 |
| KMT2E (lysine methyltransferase 2E (inactive)) | -1.12 | -1.18 | -1.14 | -1.05 |
| LINC02577 (long independently transcribed non-coding RNA 2577) | 0.29 | 0.62 | -0.11 | 0.36 |
| BACE1 (beta-secretase 1) | -0.47 | -0.43 | -0.47 | -0.52 |
| EPOR (erythropoietin receptor) | 0.72 | 0.54 | 0.67 | 0.95 |
| MPC2 | -0.5 | -0.68 | -0.59 | -0.23 |
| RPL34 (ribosomal protein L34) | -1.87 | -1.7 | -2.03 | -1.88 |
| GAPDHP24 (glyceraldehyde 3 phosphate dehydrogenase pseudogene 24) | 0.92 | 0.81 | 0.98 | 0.98 |
| ABI1 (abl interactor 1) | 0.55 | 0.96 | 0.28 | 0.41 |
| CD180 (CD180 molecule) | 0.81 | 0.82 | 0.88 | 0.72 |
| RUFY4 (RUN and FYVE domain containing 4) | -0.61 | -1.07 | -0.68 | -0.09 |
| LOC387654 (retired record) | 0.52 | -0.01 | 0.85 | 0.72 |
| ERBB4 (erb-b2 receptor tyrosine kinase 4) | 2.54 (active) | 3.04 | 2.32 | 2.27 |
| EXOSC10 (exosome component 10) | 1.56 | 1.84 | 1.28 | 1.57 |
| LOC105378586 | -0.68 | -1 | -0.67 | -0.38 |
